# Reference: PubChem BioAssay AID1259414 (Drosophila RNAi Screening Center, 2018)
# Assay: 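Fly genes that alter Wolbachia amount inside host cells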 (primary screen)
# System: Drosophila JW18 cells infected with Wolbachia
# Reagents: long dsRNA against Drosophila genes, 0.25 µg dsRNA per well of a 384-well plate
# Duration: 5 days
# Treatment: cells persistently infected with Wolbachia before knock-down; no added drug
# Measurement: 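Imaged fluorescence in situ signal for Wolbachia 23S rRNA per DAPI-counted host cell, given as a robust z-score within each plate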
# Direction: Wolbachia per cell robust z: higher = more Wolbachia per host cell than the plate typical
# Active means: 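Active if absolute robust z reaches 1.5 in two or more of three replicates, leaving out multi- or no-target dsRNAs, genes unexpressed in JW18 and A1 wells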
# The deposit covers about 24,000 reagents; this is an unselected part of those that have a named target and a result. Over the whole deposit, about 1,210 (5%) are marked active. 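Inactive calls also include excluded dsRNAs with several or no targets, genes unexpressed in JW18, and well A1, regardless of score.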 A number with no mark means an inactive call. The numbers tell different reagents against one gene apart. A plus sign joins genes that one reagent is predicted to hit.
gene,reagent no.,"Wolbachia per cell robust z, rep 1","Wolbachia per cell robust z, rep 2","Wolbachia per cell robust z, rep 3"
CG13272,1,-0.329,-2.34,0.467
CG13272,2,-1.36,0.137,-1.25
CG13272,3,0.387,-0.0221,0.299
Trs31,1,-3.03 (active),-0.484,-1.75
Fie,1,-3.45,-6.48,-5.86
CG13723,1,-0.413,-0.368,0.992
zfh2,1,0.462,-1.19,-8.68
zfh2,2,-2.27 (active),-0.627,-2.62
CG14879,1,0.77,0.534,0.482
CG14879,2,0.32,1.06,1.35
CG32547,1,-0.541,0.214,0.555
CG32547,2,1.26,-0.447,1.44
Ance-3,1,-5.71,0.171,1.43
Ance-3,2,0.0385,-0.627,-0.463
CG9067,1,0.173,0.688,-0.724
Tnpo,1,1.42 (active),3,1.73
Tnpo,2,1.14 (active),2.29,4.39
CG6996,1,-4.23,-0.984,0.647
CG32638,1,-0.338,-0.287,-0.948
Cep290,1,-3.02,0.786,1.08
Cep290,2,0.13,0.657,-1.26
Plap,1,0.374,-0.558,-0.265
CG15927,1,0.735,-1.42,0.715
CG15927,2,-1.51,0.595,-0.339
shrb,1,2.72 (active),0.319,4.18
CG3592,1,-1.11,-0.423,-1.59
CG3592,2,-0.649,-1.09,-0.116
dyw,1,-1.04,0.539,0.692
dyw,2,-0.159,1.5,1.36
CG33303,1,0.0979,-4.5,-1.26
CG34174,1,0.485,1,0.35
lectin-37Db,1,-0.451,-1.15,0.214
Or35a,1,0.749,0.792,0.426
cert,1,1.18,0.27,0.263
Mulk,1,-1.07,-7.6,0.789
CCT6,1,0.745,0.517,0.715
CG3699,1,-0.87,-0.68,-1.12
CG3699,2,-4.57,-0.701,0.435
Cchl,1,-9.26,1.39,-0.564
Lcch3 + Ranbp16,1,-1.62,-5.53,2.69
CG13280,1,-1.89,-1.87,-0.0922
pirk,1,1.59,0.522,0.433
H15,1,0.231,1.33,-1.13
H15,2,-0.0251,0.836,1.14
H15,3,-1.22,-1.52,0.225
CG31103,1,0.334,0.217,-1.12
CG10481,1,0.828,0.669,1.42
CG7829,1,0.27,-0.621,0.237
CG7829,2,0.79,-0.338,-0.31
CG9452,1,0.248,-0.217,-0.826
CG9452,2,0.546,-3.54,-0.619
CG15107,1,1.72,0.681,1.4
LanB2,1,-0.378,0.215,-0.51
CG33939,1,0.402,-0.147,-7.8
Tre1,1,0.609,0.346,0.692
Tre1,2,0.834,2.15,0.739
CG34210,1,-0.178,-0.863,-0.905
CG34210,2,-0.731,0.261,0.878
CG3117,1,-3.59,-0.737,-1.16
CG1227,1,0.989,1.02,-1.28
CG1227,2,-5.39,0.2,-0.702
Arpc5,1,-2.9,0.32,0.00289
Tbcc,1,-0.482,-1.48,0.403
Tbcc,2,-0.334,0.139,-1.43
CG34161,1,-3.14,-1.12,0.9
CG10283,1,-0.509,0.633,1.78
CG10283,2,-0.32,-5.05,-0.125
Girdin,1,-7.61,0.445,-0.344

Sorted by “Wolbachia per cell robust z, rep 3” (low to high): some entries from above.
gene,reagent no.,"Wolbachia per cell robust z, rep 1","Wolbachia per cell robust z, rep 2","Wolbachia per cell robust z, rep 3"
H15,1,0.231,1.33,-1.13
Cchl,1,-9.26,1.39,-0.564
CG13280,1,-1.89,-1.87,-0.0922
pirk,1,1.59,0.522,0.433
CG3699,2,-4.57,-0.701,0.435
Lcch3 + Ranbp16,1,-1.62,-5.53,2.69
